Compound potency records, mixed from different reports. Data source: NIAID ChemDB in PubChem.

Shared fields: growth or infection tests; organism: HIV-1; read-out: EC50

ECn: concentration that inhibits the pathogen or its effect by n%.

{"SMILES": "CC(C)C1=C2[C@H]3CC[C@@H]4[C@@]5(C)CC[C@H](OC(=O)[C@H]6C[C@@H](C(=O)O)C6(C)C)C(C)(C)[C@@H]5CC[C@@]4(C)[C@]3(C)CC[C@@]2([C@@H](O)CNCC(C)(C)NC(=O)c2ccc(Cl)cc2O[C@H]2CCOC2)CC1=O", "cells": "MT-2", "strain or isolate": "92HT599", "read by": "p24 / ELISA", "value": "<1 µM"}
{"SMILES": "Cc1cc(S(N)(=O)=O)ccc1NC(=O)COc1ccc(Cl)cc1C(=O)c1cccc(C#N)c1", "cells": "HeLa + HELA CD4+", "strain or isolate": "HXB2", "changes": "RT-Y188C", "read by": "β-galactosidase", "value": "<0.01 µM"}
{"SMILES": "[2H]C(CCN)(CNC(=O)C[C@@]12CC[C@]3(C)[C@H](CC[C@@H]4[C@@]5(C)CC[C@H](OC(=O)[C@H]6C[C@@H](C(=O)O)C6(C)C)C(C)(C)[C@@H]5CC[C@]43C)C1=C(C(C)C)C(=O)C2)NC(=O)c1ccc(Cl)cc1", "cells": "MT-2", "strain or isolate": "92HT599", "read by": "p24 / ELISA", "value": "<1 µM"}
{"SMILES": "CCCO[C@H](C(=O)O)c1c(C)ncc(-c2ccc(OCC3CCC3)cn2)c1N1CCC(C)(C)CC1", "cells": "MT-2", "strain or isolate": "NL4-3", "read by": "luminescence", "value": "0.0112 µM"}
{"SMILES": "CS(=O)(=O)Nc1ccc(NC(=O)COc2ccc(Cl)cc2C(=O)c2ccccc2)cc1", "cells": "MT-4", "strain or isolate": "Nevirapine-resistant (RT Y181C)", "changes": "RT-Y181C", "read by": "cytopathic effect / propidium iodide", "value": "0.011–0.1 µM"}
{"SMILES": "CC(C)C1=C2[C@H]3CC[C@@H]4[C@@]5(C)CC[C@H](OC(=O)[C@H]6C[C@@H](C(=O)O)C6(C)C)C(C)(C)[C@@H]5CC[C@@]4(C)[C@]3(C)CC[C@@]2(CCNCc2ccc(N3CCC(N4CCOCC4)CC3)cc2)CC1=O", "cells": "MT-2", "strain or isolate": "92HT599", "read by": "p24 / ELISA", "value": "<1 µM"}
{"SMILES": "Cc1ncc(-c2ccc(OCCCN3CCOCC3)cn2)c(N2CCC(C)(C)CC2)c1[C@H](OC(C)(C)C)C(=O)O", "cells": "MT-2", "strain or isolate": "NL4-3", "read by": "luminescence", "value": "0.0213 µM"}
{"SMILES": "Cc1cc2cn[nH]c2cc1NC(=O)COc1ccc(Cl)cc1C(=O)c1cccc(C#N)c1", "cells": "HeLa + HELA CD4+", "strain or isolate": "HXB2", "changes": "RT-K103N V108I", "read by": "β-galactosidase", "value": "<0.01 µM"}
{"SMILES": "Cc1nc(C)c(C(=O)NC(C)(C)CNC(=O)C[C@@]23CC[C@]4(C)[C@H](CC[C@@H]5[C@@]6(C)CC[C@H](OC(=O)[C@H]7C[C@@H](C(=O)O)C7(C)C)C(C)(C)[C@@H]6CC[C@]54C)C2=C(C(C)C)C(=O)C3)s1", "cells": "MT-2", "strain or isolate": "92HT599", "read by": "p24 / ELISA", "value": "<1 µM"}
{"SMILES": "Cc1cc(C#N)cc(C(=O)c2cc(Cl)ccc2OCC(=O)Nc2ccc(S(N)(=O)=O)cc2C)c1", "cells": "HeLa + HELA CD4+", "strain or isolate": "HXB2", "changes": "RT-V106I Y181C", "read by": "β-galactosidase", "value": "<0.01 µM"}
{"SMILES": "Cc1cc(F)ccc1OCCN(C)c1ccc(-c2cnc(C)c([C@H](OC(C)(C)C)C(=O)O)c2N2CCC(C)(C)CC2)cn1", "cells": "MT-2", "strain or isolate": "NL4-3", "read by": "luminescence", "value": "0.002 µM"}
{"SMILES": "N#CC1=CC2Nc3ccccc3C2N(c2ccc([N+](=O)[O-])cc2)C1=O", "cells": "HeLa", "strain or isolate": "12AG", "read by": "GFP / fluorescence", "value": "0.49 µM"}
{"SMILES": "CCc1cc(C#N)cc(C(=O)c2cc(Cl)ccc2OCC(=O)Nc2ccc(S(N)(=O)=O)cc2C)c1", "cells": "MT-4", "strain or isolate": "Nevirapine-resistant (RT Y181C)", "changes": "RT-Y181C", "read by": "cytopathic effect / propidium iodide", "value": "<0.01 µM"}
{"SMILES": "Cc1ncc(-c2ccc(OCCOc3ccc(Cl)cc3)cn2)c(N2CCC(C)(C)CC2)c1[C@H](OC(C)(C)C)C(=O)O", "cells": "MT-2", "strain or isolate": "NL4-3", "read by": "luminescence", "value": "0.0039 µM"}
{"SMILES": "CC(C)C1=C2[C@H]3CC[C@@H]4[C@@]5(C)CC[C@H](OC(=O)[C@H]6C[C@@H](C(=O)O)C6(C)C)C(C)(C)[C@@H]5CC[C@@]4(C)[C@]3(C)CC[C@@]2(CCNCC(C)(C)NC(=O)c2ccccn2)CC1=O", "cells": "MT-2", "strain or isolate": "92HT599", "read by": "p24 / ELISA", "value": "<1 µM"}
{"SMILES": "Cc1ncc(-c2ccc(N(C)CCOc3ccc(Cl)cc3Cl)nc2)c(N2CCC(C)(C)CC2)c1[C@H](OC(C)(C)C)C(=O)O", "cells": "MT-2", "strain or isolate": "NL4-3", "read by": "luminescence", "value": "0.0025 µM"}
{"SMILES": "CN1c2ccccc2C2C1C=C(C#N)C(=O)N2c1ccc([N+](=O)[O-])cc1", "cells": "HeLa", "strain or isolate": "52543-2", "read by": "GFP / fluorescence", "value": "0.07 µM"}
{"SMILES": "CC(C)C1=C2[C@H]3CC[C@@H]4[C@@]5(C)CC[C@H](OC(=O)[C@H]6C[C@@H](C(=O)O)C6(C)C)C(C)(C)[C@@H]5CC[C@@]4(C)[C@]3(C)CC[C@@]2([C@@H](O)CNC(=O)C(C)(CN)NC(=O)c2ccc(Cl)cc2)CC1=O", "cells": "MT-2", "strain or isolate": "92HT599", "read by": "p24 / ELISA", "value": "<1 µM"}
{"SMILES": "CCCO[C@H](C(=O)O)c1c(C)ncc(-c2ccc(OCCOc3ccccc3Cl)cn2)c1N1CCC(C)(C)CC1", "cells": "MT-2", "strain or isolate": "NL4-3", "read by": "luminescence", "value": "0.0007 µM"}
{"SMILES": "Cc1cc(N2CCS(=O)CC2)ccc1NC(=O)COc1ccc(Cl)cc1C(=O)c1cccs1", "cells": "HeLa + HELA CD4+", "strain or isolate": "WTRVA", "read by": "β-galactosidase", "value": "0.011–0.1 µM"}
{"SMILES": "CCCC(CF)Oc1ccc(-c2cnc(C)c([C@H](OC(C)(C)C)C(=O)O)c2N2CCC(C)(C)CC2)nc1", "cells": "MT-2", "strain or isolate": "NL4-3", "read by": "luminescence", "value": "0.0021 µM"}
{"SMILES": "Cc1cc(Cl)cc(C(=O)c2cc(Cl)ccc2OCC(=O)Nc2ccc(S(N)(=O)=O)cc2C)c1", "cells": "HeLa + HELA CD4+", "strain or isolate": "HXB2", "changes": "RT-V106I", "read by": "β-galactosidase", "value": "<0.01 µM"}

Repeating the first 2 entries:

SMILES,cells,strain or isolate,changes,read by,value
CC(C)C1=C2[C@H]3CC[C@@H]4[C@@]5(C)CC[C@H](OC(=O)[C@H]6C[C@@H](C(=O)O)C6(C)C)C(C)(C)[C@@H]5CC[C@@]4(C)[C@]3(C)CC[C@@]2([C@@H](O)CNCC(C)(C)NC(=O)c2ccc(Cl)cc2O[C@H]2CCOC2)CC1=O,MT-2,92HT599,,p24 / ELISA,<1 µM
Cc1cc(S(N)(=O)=O)ccc1NC(=O)COc1ccc(Cl)cc1C(=O)c1cccc(C#N)c1,HeLa + HELA CD4+,HXB2,RT-Y188C,β-galactosidase,<0.01 µM

Conditions beyond the fields shown may differ between rows. Blank or dashed fields: not listed here. Two numbers with a dash give a range or band.